Compound potency records, mixed from different reports. Data source: NIAID ChemDB in PubChem.

Shared fields: tests in culture; species: Cryptosporidium parvum

Conditions beyond the fields shown may differ between rows. ECn: concentration that inhibits the pathogen or its effect by n%. An empty or dashed field is not shown. Percent inhibition refers to the dose given; in toxicity tests it is the harm to the cells.

O=C(C[C@H]1NCCC[C@@H]1O)Cn1cnc2cc(Br)c(Cl)cc2c1=O ; endpoint: inhibition ; cells: L929 ; strain or isolate: Calf isolate ; tested at: 4 µg/mL ; result: 93.16%
Nc1nc2c(ncn2COCCO)c(=O)[nH]1 ; endpoint: inhibition ; tested at: 1 µg/mL ; result: 7%
CC[C@H]1OC(=O)[C@H](C)[C@@H](O[C@H]2C[C@@](C)(OC)[C@@H](O)[C@H](C)O2)[C@H](C)[C@@H](O[C@@H]2O[C@H](C)C[C@H](N(C)C)[C@H]2O)[C@](C)(OC)C[C@@H](C)C(=O)[C@H](C)[C@@H](O)[C@]1(C)O ; endpoint: EC50 ; read by: cell count ; result: >50 µM
NC[C@@H]1O[C@H](O[C@H]2[C@@H](O)[C@H](O[C@@H]3[C@@H](O)[C@H](N)C[C@H](N)[C@H]3O[C@H]3O[C@H](CO)[C@@H](O)[C@H](O)[C@H]3N)O[C@@H]2CO)[C@H](N)[C@@H](O)[C@@H]1O ; endpoint: inhibition ; tested at: 10 µg/mL ; result: 11%
COCCN(CCOC)c1c([N+](=O)[O-])cc(C(F)(F)F)cc1[N+](=O)[O-] ; endpoint: EC50 ; cells: MDCK cells ; read by: ELISA / luminescence ; result: 6.5 µM
CC1NC(=O)C(C)NC(=O)C2CCCN2C(=O)C(CCCCCC(=O)C2CO2)NC1=O ; endpoint: MIC ; result: 0.18 µg/mL
CO[C@@H]1[C@@H](O[C@@H]2O[C@H](C)[C@@H](O[C@H]3C[C@@](C)(O)[C@@H](O)[C@H](C)O3)[C@H](N(C)C)[C@H]2O)[C@@H](CC=O)C[C@@H](C)[C@@H](O[C@H]2CC[C@H](N(C)C)[C@H](C)O2)/C=C/C=C/C[C@@H](C)OC(=O)C[C@H]1O ; endpoint: inhibition ; cells: L929 ; strain or isolate: Calf isolate ; tested at: 0.032 µg/mL ; result: 26.6%
CC1NC(=O)C(C)NC(=O)C2CCCN2C(=O)C(CCCCCC(=O)CCO)NC1=O ; endpoint: MIC ; result: >1 µg/mL
CCC(CC)Nc1c([N+](=O)[O-])cc(C(F)(F)F)cc1[N+](=O)[O-] ; endpoint: EC50 ; cells: MDCK cells ; read by: ELISA / luminescence ; result: 0.67 µM
CC(C)N=C(N)/N=C(\N)Nc1ccc(Cl)cc1 ; endpoint: inhibition ; cells: L929 ; strain or isolate: Calf isolate ; tested at: 0.8 µg/mL ; result: 2.59%
COC(=O)c1cc([N+](=O)[O-])c(N2CCN(C)CC2)c([N+](=O)[O-])c1 ; endpoint: EC50 ; cells: MDCK cells ; read by: ELISA / luminescence ; result: 7.2 µM
N/C(=N\N=C\c1ccc(Cl)cc1)N/N=C/c1ccc(Cl)cc1 ; endpoint: EC50 ; cells: L929 ; strain or isolate: Human isolate ; result: >20 µg/mL
O=C(O)P(=O)(O)O ; endpoint: inhibition ; tested at: 25 µg/mL ; result: 0%
Nc1nc(N)c2c(n1)NC(c1sc(Cl)nc1Cl)CC(c1ccc(Cl)cc1)=N2 ; endpoint: MFC ; strain or isolate: IM 052470 ; read by: broth dilution ; result: 62.5 µg/mL
CO[C@H]1/C=C/O[C@@]2(C)Oc3c(C)c(O)c4c(O)c(c5c(c4c3C2=O)NC2(CCN(CC(C)C)CC2)N=5)=NC(=O)/C(C)=C\C=C\[C@H](C)[C@H](O)[C@@H](C)[C@@H](O)[C@@H](C)[C@H](OC(C)=O)[C@@H]1C ; endpoint: EC50 ; read by: cell count ; result: >50 µM
CCCN(CCC)c1c([N+](=O)[O-])cc(C(F)(F)F)cc1[N+](=O)[O-] ; endpoint: EC50 ; cells: MDCK cells ; read by: ELISA / luminescence ; result: 0.13 µM
NC12CC3CC(CC(C3)C1)C2 ; endpoint: inhibition ; tested at: 10 µg/mL ; result: 2%
NC[C@@H]1O[C@H](O[C@H]2[C@@H](O)[C@H](O[C@@H]3[C@@H](O)[C@H](N)C[C@H](N)[C@H]3O[C@H]3O[C@H](CO)[C@@H](O)[C@H](O)[C@H]3N)O[C@@H]2CO)[C@H](N)[C@@H](O)[C@@H]1O ; endpoint: EC50 ; cells: MDCK ; strain or isolate: Iowa bovine isolate ; read by: antigen ; result: 92.3 µM
CO[C@@H]1[C@@H](OC)[C@H](C)[C@@](O)(CC(=O)O)O[C@H]1[C@H](C)[C@H]1O[C@@]2(CC[C@@](C)([C@H]3CC[C@@](C)([C@@H]4O[C@@H]([C@H]5O[C@](C)(O)[C@H](C)C[C@@H]5C)C[C@@H]4O[C@@H]4C[C@H](OC)[C@@H](OC)[C@H](C)O4)O3)O2)C[C@H](O)[C@H]1C ; endpoint: MIC ; result: 0.5 µg/mL
CCc1nc(N)nc(N)c1-c1ccc(Cl)cc1 ; endpoint: EC50 ; cells: L929 ; strain or isolate: Calf isolate ; result: <0.8 µg/mL
O=c1[nH]c(=O)n([C@H]2C[C@H](O)[C@@H](CO)O2)cc1I ; endpoint: inhibition ; tested at: 5 µg/mL ; result: 82%
O=S(=O)(F)Cc1ccccc1 ; endpoint: inhibition ; tested at: 2000 µM ; result: 44.1%
CC(=O)N[C@@H](CC(C)C)C(=O)N[C@@H](CC(C)C)C(=O)N[C@H](C=O)CCCN=C(N)N ; endpoint: inhibition ; tested at: 5 µg/mL ; read by: cell count / microscopy ; result: 10.9%
O=c1[nH]c(=O)n([C@H]2C[C@H](O)[C@@H](CO)O2)cc1/C=C/Br ; endpoint: inhibition ; tested at: 10 µg/mL ; result: 12%

The last 3 rows once more:

structure	endpoint	cells	strain or isolate	tested at	read by	result
O=S(=O)(F)Cc1ccccc1	inhibition			2000 µM		44.1%
CC(=O)N[C@@H](CC(C)C)C(=O)N[C@@H](CC(C)C)C(=O)N[C@H](C=O)CCCN=C(N)N	inhibition			5 µg/mL	cell count / microscopy	10.9%
O=c1[nH]c(=O)n([C@H]2C[C@H](O)[C@@H](CO)O2)cc1/C=C/Br	inhibition			10 µg/mL		12%